Anti-infective test results gathered from many reports (values: NIAID ChemDB through PubChem).

Shared fields: growth or infection tests; species: Mycobacterium avium complex; read-out: MBC

Rows are shuffled and stem from different studies. Blank or dashed fields: not listed here.

smiles	strain	conditions	result
CO[C@H]1/C=C/O[C@@]2(C)Oc3c(C)c(O)c4c(=O)c(c5oc6cc(N7CCN(CC(C)C)CC7)cc(=O)c6nc5c4c3=C2O)NC(=O)/C(C)=C\C=C\[C@H](C)[C@H](O)[C@@H](C)[C@@H](O)[C@@H](C)[C@H](OC(C)=O)[C@@H]1C	N-444		>4 µg/mL
CC1COc2c(N3CCN(C)CC3)c(F)cc3c(=O)c(C(=O)O)cn1c23	ATCC 35718		>8 µg/mL
NC[C@H]1O[C@H](O[C@H]2[C@H](O)[C@@H](O[C@H]3O[C@H](CO)[C@@H](O)[C@H](N)[C@H]3O)[C@H](N)C[C@@H]2N)[C@H](O)[C@@H](O)[C@@H]1O	ATCC 35718		16 µg/mL
C[C@@H]1CN(c2c(F)c(N)c3c(=O)c(C(=O)O)cn(C4CC4)c3c2F)C[C@H](C)N1	Isolate 90-0827		1.5 µg/mL
CO[C@H]1/C=C/O[C@@]2(C)Oc3c(C)c(O)c4c(O)c(c5c(c4c3C2=O)NC2(CCN(CC(C)C)CC2)N=5)=NC(=O)/C(C)=C\C=C\[C@H](C)[C@H](O)[C@@H](C)[C@@H](O)[C@@H](C)[C@H](OC(C)=O)[C@@H]1C	3009-4		32 µg/mL
CO[C@H]1/C=C/O[C@@]2(C)Oc3c(C)c(O)c4c(=O)c(c5oc6cc(N7CCN(CC(C)C)CC7)cc(=O)c6nc5c4c3=C2O)NC(=O)/C(C)=C\C=C\[C@H](C)[C@H](O)[C@@H](C)[C@@H](O)[C@@H](C)[C@H](OC(C)=O)[C@@H]1C	N-444		1 µg/mL
CCN=c1cc2n(-c3ccc(Cl)cc3)c3ccccc3nc-2cc1Nc1ccc(Cl)cc1	101		64 µg/mL
NC[C@@H]1O[C@H](O[C@H]2[C@@H](O)[C@H](O[C@@H]3[C@@H](O)[C@H](N)C[C@H](N)[C@H]3O[C@H]3O[C@H](CN)[C@@H](O)[C@H](O)[C@H]3N)O[C@@H]2CO)[C@H](N)[C@@H](O)[C@@H]1O	ATCC 35718		>64 µg/mL
CC[C@H]1OC(=O)[C@H](C)[C@@H](O[C@H]2C[C@@](C)(OC)[C@@H](O)[C@H](C)O2)[C@H](C)[C@@H](O[C@@H]2O[C@H](C)C[C@H](N(C)C)[C@H]2O)[C@](C)(OC)C[C@@H](C)C(=O)[C@H](C)[C@@H](O)[C@]1(C)O	N-444		32 µg/mL
C[C@H]1COc2c(N3CCN(C)CC3)c(F)cc3c(=O)c(C(=O)O)cn1c23	ATCC 35718		>8 µg/mL
CC(C)N=c1cc2n(-c3ccc(Cl)cc3)c3ccccc3nc-2cc1Nc1ccc(Cl)cc1	211		64 µg/mL
CCN=c1cc2n(-c3ccccc3)c3ccc(Cl)cc3nc-2cc1Nc1ccccc1		inside macrophages	>4 µg/mL
CC[C@H]1OC(=O)[C@H](C)[C@@H](O[C@H]2C[C@@](C)(OC)[C@@H](O)[C@H](C)O2)[C@H](C)[C@@H](O[C@@H]2O[C@H](C)C[C@H](N(C)C)[C@H]2O)[C@](C)(OC)C[C@@H](C)C(=O)[C@H](C)[C@@H](O)[C@]1(C)O	ATCC 35718		2 µg/mL
Clc1ccc(Nc2cc3nc4ccccc4n(-c4ccc(Cl)c(Cl)c4)c-3cc2=NC2CCNCC2)cc1Cl		inside macrophages	>4 µg/mL
CC[C@H]1OC(=O)[C@H](C)[C@@H](O[C@H]2C[C@@](C)(OC)[C@@H](O)[C@H](C)O2)[C@H](C)[C@@H](O[C@@H]2O[C@H](C)C[C@H](N(C)C)[C@H]2O)[C@](C)(O)C[C@@H](C)CN(C)[C@H](C)[C@@H](O)[C@]1(C)O	ATCC 35718		>8 µg/mL
CCN=c1cc2n(-c3ccc(Cl)cc3)c3ccccc3nc-2cc1Nc1ccc(Cl)cc1		inside macrophages	>4 µg/mL
NCC[C@H](O)C(=O)N[C@@H]1C[C@H](N)[C@@H](O[C@H]2O[C@H](CN)[C@@H](O)[C@H](O)[C@H]2O)[C@H](O)[C@H]1O[C@H]1O[C@H](CO)[C@@H](O)[C@H](N)[C@H]1O	ATCC 35718		32 µg/mL

A second listing of 2 rows from above:

NC[C@@H]1O[C@H](O[C@H]2[C@@H](O)[C@H](O[C@@H]3[C@@H](O)[C@H](N)C[C@H](N)[C@H]3O[C@H]3O[C@H](CN)[C@@H](O)[C@H](O)[C@H]3N)O[C@@H]2CO)[C@H](N)[C@@H](O)[C@@H]1O ; strain: ATCC 35718 ; result: >64 µg/mL
C[C@@H]1CN(c2c(F)c(N)c3c(=O)c(C(=O)O)cn(C4CC4)c3c2F)C[C@H](C)N1 ; strain: Isolate 90-0827 ; result: 1.5 µg/mL